Measured values from several laboratories, pooled; numbers as filed in NIAID ChemDB.

Common to all: whole-cell or culture tests; organism: Mycobacterium tuberculosis

MIC bound: limit read from a one-dose screen. Neighbouring rows are from separate reports. An empty or dashed field is not shown. "inactive" is the filed call at that dose; no cut-off is given. A number after MIC or MFC names an inhibition level or a share of isolates. ECn is the concentration giving n% inhibition of infection, replication or growth. Percent inhibition refers to the dose given; in toxicity tests it is the harm to the cells.

compound | tested at | cells | measure | strain | conditions | read by | result
N#Cc1ccc2c(=O)c3ccccc3oc2c1 | 4 µg/mL | - | inhibition | H37Rv | - | - | inactive
Nc1cc2[nH]cc(C(=O)O)c(=O)c2cc1[N+](=O)[O-] | - | - | MIC50 | ATCC 27294 (WT) | - | - | >200 µM
CN(C(=O)c1ccccc1)[C@H]1CCCC(=O)CC1 | 12.5 µg/mL | - | inhibition | H37Rv | - | BACTEC | 16%
O=C(O)c1cc(-c2ccc(-c3ccc([N+](=O)[O-])s3)s2)nc2ccccc12 | - | - | MIC | H37Rv | - | fluorescence | 6.25 µg/mL
Cc1ccc(-c2ccccc2)n1NC(=O)c1ccccc1 | 100 µg/mL | - | inhibition | H37Rv (ATCC 27294) | - | resazurin | 100%
CCCCOc1ccc(Cc2cnc(N)nc2N)cc1OC | - | - | MIC | H37Rv | - | - | >106 µM
O=C(O)c1cc(-c2ccc(-c3cccs3)s2)nc2ccccc12 | - | - | MIC | H37Rv | - | fluorescence | >6.25 µg/mL
NNC(=O)c1ccncc1 | - | - | MBC | H37Rv | - | - | 0.05 µg/mL
O=C(O)c1cc(-c2ccc([N+](=O)[O-])cc2)nc2ccccc12 | - | - | MIC | H37Rv | - | fluorescence | 6.25 µg/mL
O=C(Oc1cc(Cl)ccc1C(=O)Nc1cccc(Br)c1)c1ccccc1 | - | - | MIC | 331/88 (H37Rv) | 14 d | broth dilution | 4 µM
CC(C)(C)n1cc(C(=O)O)c(=O)c2cc([N+](=O)[O-])c(N3CCOCC3)cc21 | - | - | MIC90 | ATCC 27294 (WT) | - | - | 75 µM
NNC(=O)c1ccncc1 | 0.21 µg/mL | - | inhibition | H37Rv (ATCC 27294) | - | turbidity | 90%
CCC1(C)C(=O)N(C)C(=O)N1Br | - | - | MIC bound | H37Rv | - | BACTEC | >12.5 µg/mL
O=C(O)c1cc(/C=C\c2cccs2)nc2ccccc12 | - | - | MIC | H37Rv | - | fluorescence | >6.25 µg/mL
Cc1onc(-c2ccccc2Cl)c1C(=O)N[C@@H]1C(=O)N2[C@@H]1SC(C)(C)[C@@H]2C(=O)O | 10 µg/mL | - | inhibition | Gordon | 21 d | colony count | 100%
Cc1ccc(-c2ccccc2)n1NC(=O)C(C)c1ccc(CC(C)C)cc1 | 100 µg/mL | - | inhibition | H37Rv (ATCC 27294) | - | resazurin | 90%
CO[C@H]1/C=C/O[C@@]2(C)Oc3c(C)c(O)c4c(O)c(c(/C=N/N5CCN(C)CC5)c(O)c4c3C2=O)NC(=O)/C(C)=C\C=C\[C@H](C)[C@H](O)[C@@H](C)[C@@H](O)[C@@H](C)[C@H](OC(C)=O)[C@@H]1C | - | - | MIC | Erdman | - | BACTEC | 0.063 µg/mL
C[C@H]1COc2c(N3CCN(C)CC3)c(F)cc3c(=O)c(C(=O)O)cn1c23 | - | - | MIC | H37Rv | - | resazurin | 0.25 µg/mL
CCc1oc(=O)c(Cc2c(OC(C)=O)cc(OC(C)=O)c3c2OC(c2ccccc2)CC3=O)c(OC(C)=O)c1C | 12.5 µg/mL | - | inhibition | H37Rv | - | BACTEC | 0%
Cc1ccc(OC/C(N)=N\NC(=O)c2ccncc2)cc1 | - | - | MIC90 | 16 isolates | - | - | 6.25 µg/mL
O=S1(=O)c2cccc(c2)NC(=S)/C([n+]2ccccc2)=C(/[O-])c2ccc(cc2)CC2CCCCN21 | 12.5 µg/mL | - | inhibition | H37Rv | - | BACTEC | -19%
CC(C)(C)n1cc(C(=O)O)c(=O)c2cc([N+](=O)[O-])c(N3CCSCC3)cc21 | - | - | MIC90 | ATCC 27294 (WT) | - | - | 100 µM
O=[N+]([O-])c1ccc(Sc2nc3c(Br)cc(Br)cc3[nH]2)c([N+](=O)[O-])c1 | - | - | MIC | My 331/88 | - | - | 32 µM
O=c1cc(CCl)[nH]nc1CCl | 12.5 µg/mL | - | inhibition | H37Rv | - | BACTEC | 17%
CCNc1cc2c(cc1[N+](=O)[O-])c(=O)c(C(=O)O)cn2CC | - | - | MIC50 | ATCC 27294 (WT) | - | - | >200 µM
COC(=O)C(=O)C(C(=O)C(=O)Nc1ccc(Cl)c(Cl)c1)c1nc2ccc(C(=O)c3ccccc3)cc2[nH]c1=O | 12.5 µg/mL | - | inhibition | H37Rv | - | BACTEC | 7%
COC(=O)c1ccc2c(=O)c3cc([N+](=O)[O-])ccc3oc2c1C(=O)OC | 16 µg/mL | - | inhibition | H37Rv | - | - | inactive
FC(F)(F)C(F)(F)c1nc2cc(Cl)c(Cl)cc2[nH]1 | - | - | MIC | My 331/88 | - | - | 8 µM
CCCCCCCCCCCCOc1ccc(Cc2cnc(N)nc2N)cc1OC | - | - | MIC | H37Rv | - | - | 19.3 µM
CCCCCCn1c(C)cc(CN2CCN(C)CC2)c1C | - | - | EC50 | H37Rv | - | - | <12.5 µg/mL
O=C(Oc1ccc(Br)cc1C(=O)Nc1ccc(C(F)(F)F)cc1)c1ccccc1 | - | - | MIC | 53/2009 | 14 d | broth dilution | 1 µM
CN[C@@H]1[C@H](O[C@H]2[C@H](O[C@H]3[C@H](O)[C@@H](O)[C@H](N=C(N)N)[C@@H](O)[C@@H]3N=C(N)N)O[C@@H](C)[C@]2(O)C=O)O[C@@H](CO)[C@H](O)[C@H]1O | - | - | MIC | H37Rv | - | - | 0.4 µg/mL
C=C(C)C(=O)OC1CC2(C)OC(=CC2=O)C(C)CC2OC(=O)C(=C)C12 | - | - | MIC bound | H37Rv | - | BACTEC | >12.5 µg/mL
O=[N+]([O-])c1ccc(Cn2cc(Cn3c4ccccc4c4ccccc43)nn2)cc1 | - | - | MIC | H37Rv | - | agar | 50 µg/mL
OC(COc1ccc2c(c1)CCC2)Cn1cnc2ccccc21 | - | - | MIC | H37Rv | - | fluorescence | 25 µg/mL
COc1cc(O)c2c(c1)C(=O)c1cc(C)cc(O)c1C2=O | 12.5 µg/mL | - | inhibition | H37Rv | - | BACTEC | -4%
N/C(COc1ccc([N+](=O)[O-])cc1)=N/NC(=O)c1ccncc1 | - | - | MIC | ATCC 35838 (rifampin-resistant) | - | - | 12.5 µg/mL
COC(=O)c1c([N+](=O)[O-])ccc2oc3ccc([N+](=O)[O-])cc3c(=O)c12 | 8 µg/mL | - | inhibition | H37Rv | - | - | inactive
CC[C@H]1OC(=O)[C@H](C)C(=O)[C@H](C)[C@@H](O[C@@H]2O[C@H](C)C[C@H](N(C)C)[C@H]2O)[C@](C)(OC)C[C@@H](C)C(=O)[C@H](C)[C@H]2N(NCCCc3ccnc4ccccc34)C(=O)O[C@]12C | - | - | MIC | Isolate 900145 | - | - | 10 µg/mL
Cc1ccc(-c2ccccc2)n1NC(=O)c1ccncc1 | - | - | EC90 | H37Rv | - | turbidity | 5.16 µg/mL
Cc1c(CN2CCN(C)CC2)c(CN2CCN(C)CC2)c(-c2ccc(Cl)cc2)n1C1CCCCC1 | - | - | MIC | H37Rv | - | - | <12.5 µg/mL
O=C(Nn1c(-c2ccccc2)ccc1-c1ccccc1)c1ccncc1 | - | - | EC90 | LORA | - | turbidity | >67.8 µg/mL
COc1ccc(OC)c(-n2cc(Cn3c4ccccc4c4ccccc43)nn2)c1 | - | - | MIC | H37Rv | - | agar | 25 µg/mL
C[N+](C)(C)CC(=O)N/N=C/c1ccc([N+](=O)[O-])o1 | - | VERO | MIC | H37Rv | - | BACTEC | 12.5 µg/mL
Cc1ccc(-c2ccc(Cl)cc2)n1Cc1ccccc1 | - | - | MIC | 103471 | - | - | 4 µg/mL
FC(F)(F)C(F)(F)C(F)(F)C(F)(F)c1nc2c(Cl)cc(Cl)cc2[nH]1 | - | - | MIC | My 331/88 | - | - | 8 µM
COc1cc(Cc2cnc(N)nc2N)ccc1OCCCc1ccccc1 | - | - | MIC | H37Rv | - | - | 22 µM
Cc1c(CN2CCN(C)CC2)cc(-c2ccc(Cl)cc2)n1Cc1ccccc1 | - | - | MIC | 103471 | - | - | 4 µg/mL
O=C(Oc1ccc(Cl)cc1C(=O)Nc1ccc(Br)cc1)c1ccccc1 | - | - | MIC | 331/88 (H37Rv) | 14 d | broth dilution | 2 µM
Cc1ccc(NC(=O)c2cc(-c3cccs3)nc3ccc(C)cc23)cc1 | - | - | MIC | H37Rv | - | fluorescence | >6.25 µg/mL
O=C(CCCC(=O)NNC(=O)Nc1ccccc1Cl)NNC(=O)Nc1ccccc1Cl | - | - | MIC | H37Rv | - | BACTEC | ≥12.5 µg/mL
CCCCCCCCS(=O)(=O)CC(N)=O | - | - | MIC | CSU93 | - | - | ≤25 µg/mL
CCCCCCn1c(C)ccc1C | 12.5 µg/mL | - | inhibition | H37Rv | - | - | 97%
CCCCCCCCCCOc1ccc(Cc2cnc(N)nc2N)cc1OC | - | - | MIC | H37Rv | - | - | 15.5 µM
CCOC(=O)Cn1/c(=N/N=C(\C)c2ccc([N+](=O)[O-])o2)sc2cc(Cl)ccc21 | - | - | MIC | H37Rv | - | BACTEC | ≥12.5 µg/mL
Fc1ccc(-n2cc(Cn3c4ccccc4c4ccccc43)nn2)cc1Cl | - | - | MIC | H37Rv | - | agar | 25 µg/mL
CC1(C)S[C@@H]2[C@H](NC(=O)C(C(=O)O)c3ccccc3)C(=O)N2[C@H]1C(=O)O | 10 µg/mL | - | inhibition | Gordon | 21 d | colony count | 77%
O=C(Oc1ccc(Cl)cc1C(=O)Nc1ccc(C(F)(F)F)cc1)c1ccccc1 | - | - | MIC | 53/2009 | 14 d | broth dilution | 0.5 µM
Nc1ccc2cc(S(=O)(=O)O)cc(O)c2c1N=Nc1ccc(NC(=O)c2ccc(C(=O)Nc3ccc(N=Nc4c(N)ccc5cc(S(=O)(=O)O)cc(O)c45)c(S(=O)(=O)O)c3)cc2)cc1S(=O)(=O)O | 12.5 µg/mL | - | inhibition | H37Rv | - | BACTEC | 9%
O=[N+]([O-])c1ccc(Sc2nc3c(Br)c(Br)c(Br)c(Br)c3[nH]2)cc1 | - | - | MIC | My 331/88 | - | - | 16 µM
O=C(O)c1ccc2c(=O)c3cc([N+](=O)[O-])ccc3oc2c1C(=O)O | 32 µg/mL | - | inhibition | H37Rv | - | - | inactive
N/C(COc1ccc(Cl)cc1)=N/NC(=O)c1ccncc1 | - | - | MIC50 | 16 isolates | - | - | 3.12 µg/mL
CC(C)C1=CC2=CC(O)C3C(C)(C)CCCC3(C)C2=C(O)C1=O | 12.5 µg/mL | - | inhibition | H37Rv | - | BACTEC | 89%
O=C(Nc1nc(-c2cccs2)cs1)c1cc(-c2cccs2)nc2ccccc12 | - | - | MIC | H37Rv | - | fluorescence | >6.25 µg/mL
O=C(Oc1ccc(Cl)cc1C(=O)Nc1ccc(Cl)c(Cl)c1)c1ccccc1 | - | - | MIC | 7357/1998 | 21 d | broth dilution | 0.5 µM
NN1C(=O)c2cccc3cccc(c23)C1=O | 6.25 µg/mL | - | inhibition | H37Rv | - | resazurin | 12%
CCCCCCn1c(C)c(CN2CCN(C)CC2)c(CN2CCN(C)CC2)c1-c1ccc(Cl)cc1 | 12.5 µg/mL | - | inhibition | H37Rv | - | - | 98%
O=C(O)c1ccc2oc3c(C(=O)O)cc([N+](=O)[O-])cc3c(=O)c2c1 | 32 µg/mL | - | inhibition | H37Rv | - | - | inactive
O=[N+]([O-])c1ccc(Sc2nc3c(Br)cc(Br)cc3[nH]2)cc1 | - | - | MIC | My 331/88 | - | - | 2 µM
CCCCCCCCOc1ccc(Cc2cnc(N)nc2N)cc1OC | - | - | MIC | H37Rv | - | - | 22.3 µM
Cc1ccc2c(=O)c3ccccc3oc2c1C | 8 µg/mL | - | inhibition | H37Rv | - | - | inactive
Cc1ccc(NC(=O)c2cc(-c3ccc(-c4ccc([N+](=O)[O-])s4)s3)nc3ccc(C)cc23)cc1 | - | - | MIC | H37Rv | - | fluorescence | >6.25 µg/mL
Cc1ccc2nc(=O)c3cccnc3n2c1 | 6.25 µg/mL | - | inhibition | H37Rv | - | resazurin | 24%
NNC(=O)c1cc(/C=C/c2ccc(-c3ccc([N+](=O)[O-])s3)s2)nc2ccccc12 | - | - | MIC | H37Rv | - | fluorescence | 3.125 µg/mL
O=c1[nH]nc(OCc2ccccc2)c2ncn(Cc3ccccc3)c12 | 12.5 µg/mL | - | inhibition | H37Rv | - | BACTEC | 0%
Cc1c([N+](=O)[O-])cc2c(=O)c3ccccc3oc2c1C | 4 µg/mL | - | inhibition | H37Rv | - | - | inactive
S=C(S)N1CCCC1 | - | - | MIC | EMB-R | - | - | 0.4 µg/mL
Cc1c(CN2CCOCC2)cc(-c2ccc(Cl)cc2)n1C1CCCCC1 | - | - | EC50 | H37Rv | - | - | <12.5 µg/mL
CO[C@]1([C@@H](Cl)c2ccccc2)C(=O)N(C)/C(=C/c2ccccc2)C(=O)N1C | - | - | MIC | H37Rv | - | BACTEC | ≥12.5 µg/mL
Cc1[nH]c(-c2ccc(Cl)cc2)cc1CN1CCN(C)CC1 | - | - | MIC | H37Rv | - | - | <12.5 µg/mL
Cc1ccc(NCCCC2CCCN3CCCCC23)c2c(=O)c3ccccc3sc12 | 12.5 µg/mL | - | inhibition | H37Rv | - | BACTEC | 98%
O=[N+]([O-])c1cc(Sc2nc3c(Br)c(Br)c(Br)c(Br)c3[nH]2)cc([N+](=O)[O-])c1 | - | - | MIC | My 331/88 | - | - | 16 µM
Cc1nccc2cc3c(cc12)c1ccccc1n3C | 6.25 µg/mL | - | inhibition | H37Rv | - | resazurin | 100%
O=[N+]([O-])c1ccc(Cn2cc(Cn3c4ccccc4c4ccccc43)nn2)c(Cl)c1 | - | - | MIC | H37Rv | - | agar | 25 µg/mL